Experimental data reported in patent US20140323691A1 (UAB RESEARCH FOUNDATION, published 2014).
Numbering of substitutions follows the chain as printed.

T1: BxpB (exosporium basal layer protein) (Bacillus anthracis)
T1 chain: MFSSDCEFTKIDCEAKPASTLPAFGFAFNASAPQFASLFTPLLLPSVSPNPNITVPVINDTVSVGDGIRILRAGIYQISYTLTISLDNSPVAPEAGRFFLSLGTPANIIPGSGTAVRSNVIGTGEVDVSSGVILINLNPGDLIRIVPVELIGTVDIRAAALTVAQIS

T2: BxpB mutant 10M (all acidic residues except D5, D12 and E14 changed to alanines) (Bacillus anthracis)
T2 chain: T1 chain with E7A, D60A, D66A, D87A, E94A, E125A, D127A, D141A, E149A, D155A

T3: BxpB mutant 13M (all 13 acidic residues changed to alanines) (Bacillus anthracis)
T3 chain: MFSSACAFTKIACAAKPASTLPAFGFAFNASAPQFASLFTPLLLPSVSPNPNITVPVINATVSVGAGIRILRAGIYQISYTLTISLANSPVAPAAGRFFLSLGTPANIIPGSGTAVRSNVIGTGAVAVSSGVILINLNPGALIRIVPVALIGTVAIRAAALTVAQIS

T4: BxpB mutant 10M+D127 (Bacillus anthracis)
T4 chain: T3 chain with A5D, A12D, A14E, A127D

T5: CotE (Bacillus anthracis)
T5 chain: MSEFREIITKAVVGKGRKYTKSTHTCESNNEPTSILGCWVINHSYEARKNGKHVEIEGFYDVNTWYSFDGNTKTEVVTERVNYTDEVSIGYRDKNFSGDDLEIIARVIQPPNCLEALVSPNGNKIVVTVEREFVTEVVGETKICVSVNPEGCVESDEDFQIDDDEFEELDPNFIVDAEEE

T6: BxpB mutant 10M+E125 (Bacillus anthracis)
T6 chain: T3 chain with A5D, A12D, A14E, A125E

B1: ExsY (other)
chain: SCNENKHHGSSHCVVDVVKFINELQDCSTTTCGSGCEIPFLGAHNTASVANTRPFILYTKAGAPFEAFAPSANLTSCRSPIFRVESVDDDSCAVLRVLSVVLGDSSPVPPTDDPICTFLAVPNARLVSTSTCITVDLSCFCAIQCLRDVTI
B2: CotY (other)
chain: SCNCNEDHHHHDCDFNCVSNVVRFIHELQECATTTCGSGCEVPFLGAHNSASVANTRPFILYTKAGAPFEAFAPSANLTSCRSPIFRVESIDDDDCAVLRVLSVVLGDTSPVPPTDDPICTFLAVPNARLISTNTCLTVDLSCFCAIQCLRDVTI
B3: ExsB (other)
chain: EDFLHQDPSTFDCDDDCTTKIECSDDCNCPRTRCTRVKHCTFVTKCTHVKKWTFVTKCTRVRVQKWTFVTKVTRRKECVLVTKRTRRKHCTFVTKCVRFEKKFYWTKRCYCKKCEFFPHGHGGSCDDSCDHGKDCHDDGHKWNDCKGGHKFPSCKNKKFDHFWYKKRNC
B4: BclA (collagen-like glycoprotein of the Bacillus anthracis exosporium nap) (other)
chain: AFDPNLVGPTLPPIPPFTLPTGPTGPTGPTGPTGPTGPTGPTGPTGPTGPTGPTGPTGPTGDTGTTGPTGPTGPTGPTGPTGDTGTTGPTGPTGPTGPTGPTGPTGPTGPTGPTGPTGDTGTTGPTGPTGPTGPTGPTGDTGTTGPTGPTGPTGPTGPTGPTGPTGPTGPTGPTGPTGPTGPTGDTGTTGPTGPTGPTGPTGPTGDTGTTGPTGPTGPTGPTGPTGPTGPTGATGLTGPTGPTGPSGLGLPAGLYAFNSGGISLDLGINDPVPFNTVGSQFGTAISQLDADTFVISETGFYKITVIANTATASVLGGLTIQVNGVPVPGTGSSLISLGAPIVIQAITQITTTPSLVEVIVTGLGLSLALGTSASIIIEKVA

What was measured:
[1] = target: the molecule itself; test: isopeptide bonds formed in vivo, LC-MS/MS
CotY [2] = target: B2; test: isopeptide bonds formed in vivo, LC-MS/MS
ExsY [3] = target: B1; test: isopeptide bonds formed in vivo, LC-MS/MS
[4] = target: T1, BxpB (exosporium basal layer protein); test: LC-MS/MS search for branched peptides in >250-kDa exosporium complexes (in vivo)
[5] = target: T2, BxpB mutant 10M (all acidic residues …); test: anti-BclA immunoblot of >250-kDa complexes formed during sporulation
[6] = target: T3, BxpB mutant 13M (all 13 acidic residues …); test: as above
BxpB mutant 10M+D127 = target: T4, BxpB mutant 10M+D127; test: anti-BclA immunoblot of >250-kDa complexes (attachment at residue D127)
CotE = target: T5, CotE; test: LC-MS/MS search for branched peptides in >250-kDa exosporium complexes (in vivo)
ExsY [7] = target: B1; test: as above
CotY [8] = target: B2; test: as above
BxpB mutant 10M+E125 = target: T6, BxpB mutant 10M+E125; test: anti-BclA immunoblot of >250-kDa complexes (attachment at residue E125)

B1
binding result [1]: binds
binding result (CotY [2]): binds

B2
binding result [1]: binds
binding result (ExsY [3]): binds

B3
binding result [4]: no binding

B4
binding result [5]: no binding
binding result [6]: no binding
level of attachment relative to wild-type BxpB (BxpB mutant 10M+D127): ~0.33 fraction of wild-type BxpB level
binding result (CotE): no binding
binding result (ExsY [7]): no binding
binding result (CotY [8]): no binding
level of attachment relative to wild-type BxpB (BxpB mutant 10M+E125): ~0.33 fraction of wild-type BxpB level
